Results as given in US20250144228A1, “NANOBODY-DRUG ADDUCTS AND USES THEREOF” (priority 2022, published 2025).

B1: genetically fused VHHkappa-SD36: VHHkappa N-terminally linked to SD36 by (GGGGS)3 linker, SEQ ID NO: 5 (protein)
chain: QVQLVESGGGWVQPGGSLRLSCAASGFTFSDTAMMWVRQAPGKGREWVAAIDTGGGYTYYADSVKGRFTISRDNAKNTLYLQMNSLKPEDTARYYCAKTYSGNYYSNYTVANYGTTGRGTLVTVSSAAAGGGGSGGGGSGGGGSEVQLVESGGGLVQAGGSLKLSCAASGRTYAMGWFRQAPGKEREFVAHINALGTRTYYSDSVKGRFTISRDNAKNTEYLEMNNLKPEDTAVYYCTAQGQWRAAPVAVAAEYEFWGQGTQVTVSSGGLPETGGHHHHHH
B2: VHHkappa-SD36 conjugated through click chemistry: SD36-azide conjugated to VHHkappa-DBCO through copper-free click reaction (protein)
VHH 1: QVQLVESGGGWVQPGGSLRLSCAASGFTFSDTAMMWVRQAPGKGREWVAAIDTGGGYTYYADSVKGRFTISRDNAKNTLYLQMNSLKPEDTARYYCAKTYSGNYYSNYTVANYGTTGRGTLVTVSSGG
VHH 2: EVQLVESGGGLVQAGGSLKLSCAASGRTYAMGWFRQAPGKEREFVAHINALGTRTYYSDSVKGRFTISRDNAKNTEYLEMNNLKPEDTAVYYCTAQGQWRAAPVAVAAEYEFWGQGTQVTVSSGG

Tested on: influenza virus A/Puerto Rico/8/1934 (H1N1)
Conditions: single intraperitoneal dose on day of infection; for protection from a lethal dose of influenza A virus: 2 mg/kg; for body weight change: 10 mg/kg

Molecule | protection from a lethal dose of influenza A virus | body weight change
B1 | fully protected | no weight loss
B2 | fully protected | no weight loss
